Results of unrelated studies side by side (data: NIAID ChemDB).

All rows: whole-cell or culture tests; agent: HIV-1

ECn: concentration that inhibits the pathogen or its effect by n%. Blank or dashed fields: not listed here. Rows are shuffled and stem from different studies.

smiles	endpoint	strain	read by	mutations	cell line	result
CC(C)=CCN1Cc2cc(Cl)cc3[nH]c(=S)n(c23)C[C@@H]1C	EC50	TIBO-1(RT-L100I)	syncytia	RT-L100I	CEM	5.6 µM
Cc1ccnc2c1NC(=O)c1cccnc1N2C1CC1	EC50	HXB2	p24		C8166	0.007 µM
CC(C)c1nc(CN(C)C(=O)N[C@H](C(=O)N[C@@H](Cc2ccccc2)C[C@H](O)[C@H](Cc2ccccc2)NC(=O)OCc2cncs2)C(C)C)cs1	EC50	IIIB Recombinant			MT-4	0.08 µM
COCCNC(=O)[C@@H](NC(=O)[C@H](Cc1ccc(OC)c(OC)c1OC)C[C@H](O)[C@H](Cc1ccccc1)NC(=O)OC(C)(C)C)C(C)C	EC90	MN	RT activity		MT-2	0.029 µM
CCOC1=C(c2ccc(CO[C@@H](C(=O)N[C@H](C(=O)NC)C(C)C)[C@H](O)[C@@H](O)[C@@H](OCc3ccc(C4=C(OCC)C(=O)CCC4)cc3)C(=O)N[C@H](C(=O)NC)C(C)C)cc2)CCCC1=O	EC50		cytopathic effect / XTT		MT-4	0.2 µM
CC(C)CN(C[C@@H](O)[C@H](Cc1ccccc1)NC(=O)[C@H](CC(N)=O)NC(=O)c1ccc2ccccc2n1)C(=O)NC(C)(C)C	EC95	NL4-3	p24	PR-L63P	MT-4	0.2 µM
CNC(=O)[C@@H](NC(=O)[C@H](OCc1ccccc1)[C@H](O)[C@@H](O)[C@@H](OCc1ccccc1)C(=O)N[C@H](C(=O)NC)C(C)C)C(C)C	EC50		cytopathic effect / XTT		MT-4	0.5 µM
Cc1ccnc2c1NC(=O)c1cccnc1N2C1CC1	EC50	WOPRO1838 Recombinant				0.05 µM
Cc1cc(S(N)(=O)=O)ccc1NC(=O)COc1ccc(Cl)cc1C(=O)c1cc(C#N)cc([N+](=O)[O-])c1	EC50			K103N	HeLa	0.0014 µM
CC1=C(C(=O)Nc2ccc(Cl)c(C(=O)OC(C)C)c2)SCCO1	EC50	RF			MT-2	2 µM
Cc1cn([C@H]2C[C@H](N=[N+]=[N-])[C@@H](CO)O2)c(=O)[nH]c1=O	EC50	NL4-3	cytopathic effect / MTT		MT-4	0.004 µg/mL
Cc1cn([C@H]2C[C@H](N=[N+]=[N-])[C@@H](CO)O2)c(=O)[nH]c1=O	EC50	A018A (RT-WT)	plaque count		HT4 + HT4-6C	0.01 µM
COC(=O)N[C@H](C(=O)N[C@@H](Cc1ccccc1)[C@@H](O)CN(Cc1ccc(-c2ccccn2)cc1)NC(=O)[C@@H](NC(=O)OC)C(C)(C)C)C(C)(C)C	EC50	92UG037	p24 / luminescence		MT-2	0.0038 µM
Cc1cn([C@@H]2O[C@H](CO[Si](C)(C)C(C)(C)C)C3(OS(=O)(=O)C=C3N)[C@H]2O[Si](C)(C)C(C)(C)C)c(=O)n(C)c1=O	EC50	TIBO-2(RT-K103N)	syncytia	RT-K103N	CEM	0.23 µM
Cc1cc(S(N)(=O)=O)ccc1NC(=O)COc1ccc(Cl)cc1C(=O)c1cc(C#N)cc(OC(F)F)c1	EC50			K103N	HeLa	0.0012 µM
CC(C)C(NC(=O)[C@H](OCc1ccccc1)[C@H](O)[C@@H](O)[C@@H](OCc1ccccc1)C(=O)N[C@H](C(=O)NC1CC1)C(C)C)C(=O)NC1CC1	EC50		cytopathic effect / XTT		MT-4	6 µM
CC[C@H](C)[C@H]1NC(=O)[C@@H](NC(=O)[C@@H](C)NC)[C@@H](C)OC(=O)[C@H](Cc2ccc(OC)cc2)N(C)C(=O)[C@@H]2CCCN2C(=O)[C@H](CC(C)C)NC(=O)[C@@H](C)C(=O)[C@H](C(C)C)OC(=O)C[C@@H]1O	EC50	NL4-3	luciferase		MT-2	4.14 µM
Nc1ccn([C@@H]2CO[C@H](CO)S2)c(=O)n1	EC50	RF	p24	RT-M184V	C8166	>100 µM
CC(C)[C@H](NC(=O)c1ccc2ccccc2n1)C(=O)N[C@@H](Cc1ccccc1)[C@H](O)CN1CC[C@@H](OCc2ccncc2)C[C@H]1C(=O)NC(C)(C)C	EC50	IIIB/LAV	p24		U1/HIV-1 + U1	0.09 µM
Cc1cn([C@H]2C[C@H](N=[N+]=[N-])[C@@H](CO)O2)c(=O)[nH]c1=O	EC50	IIIB Recombinant			MT-4	0.005 µM
C=C(C)OC(=O)N1c2cc(Cl)ccc2NC(=S)C1(C)C	EC50	IIIB	syncytia		CEM	0.014 µM
O=[P@]12O[C@@H]([C@@H](O)[C@@H](Cc3ccccc3)N1Cc1ccccc1)[C@@H](Cc1ccccc1)N2Cc1ccccc1	EC90	RF			MT-2	>95.3 µM
Nc1ncnc2c1ncn2[C@H]1[C@H](O)[C@H](O)[C@@H](OCP(=O)(O)O)C12CC2	EC50	WILD TYPE				90 µM
CC(C)(C)NC(=O)[C@@H]1C[C@@H]2CCCC[C@@H]2CN1C[C@@H](O)[C@H](Cc1ccccc1)NC(=O)[C@H](CC(N)=O)NC(=O)c1ccc2ccccc2n1	EC90	LAI	RT activity		PBL	0.024 µM
CC(C)(C)NC(=O)[C@@H]1C[C@@H]2CCCC[C@@H]2CN1C[C@@H](O)[C@H](Cc1ccccc1)NC(=O)[C@H](CC(N)=O)NC(=O)c1ccc2ccccc2n1	EC50	NL4-3	p24	PR-L10R M46I	MT-4	<0.025 µM
CCOP(=O)(CO[C@@H]1C=C[C@H](n2cnc3c(N)ncnc32)C12CC2)OCC	EC50	WILD TYPE				80 µM
Cc1cc(S(N)(=O)=O)ccc1NC(=O)COc1ccc(Cl)cc1C(=O)c1cc(C#N)cc(OC(F)(F)F)c1	EC50			Y181C	HeLa	0.0003 µM
CC[C@H](C)[C@H]1NC(=O)[C@@H](NC(=O)[C@@H](CC(C)C)N(C)S(=O)(=O)c2ccc(C)cc2)[C@@H](C)OC(=O)[C@H](Cc2ccc(OC)cc2)N(C)C(=O)[C@@H]2CCCN2C(=O)[C@H](CC(C)C)NC(=O)[C@H](C(C)C)OC(=O)C[C@@H]1O	EC50	NL4-3	luciferase	Delta-env-VSV-Luc	PBMC	0.014 µM
CCc1cc(NCc2nc3c(Cl)ccc(Cl)c3o2)c(=O)[nH]c1C	EC50	Pyr(RT-Y181C)	syncytia	RT-Y181C	CEM	11 µM
CC[C@H](C)[C@H]1NC(=O)[C@@H](NC(=O)[C@@H](C)N(C)C(=O)OCc2ccccc2)[C@@H](C)OC(=O)[C@H](Cc2ccc(OC)cc2)N(C)C(=O)[C@@H]2CCCN2C(=O)[C@H](CC(C)C)NC(=O)[C@@H](C)C(=O)[C@H](C(C)C)OC(=O)C[C@@H]1O	EC50	NL4-3	luciferase		MT-2	0.23 µM
Cc1cn([C@H]2C[C@H](N=[N+]=[N-])[C@@H](CO)O2)c(=O)[nH]c1=O	EC50	NL4-3	cytopathic effect / MTS	AMD3100-resistant	MT-4	0.0052 µM
COc1ccc(S(=O)(=O)N(CC(C)C)C[C@@H](O)[C@H](Cc2ccc(OC)c(Cl)c2)NC(=O)O[C@H]2CO[C@H]3OCC[C@H]32)cc1	EC50	92UG037	p24 / luminescence		PBMC	0.00032 µM
CNC(=O)C(NC(=O)[C@H](OCc1ccc(-c2cccc([N+](=O)[O-])c2)cc1)C(O)C(O)[C@@H](OCc1ccc(-c2cccc([N+](=O)[O-])c2)cc1)C(=O)NC(C(=O)NC)C(C)C)C(C)C	EC50		cytopathic effect / XTT		MT-4	0.4 µM
CCOC(=O)c1cc(C#N)cc(C(=O)c2cc(Cl)ccc2OCC(=O)Nc2ccc(S(N)(=O)=O)cc2C)c1	EC50			V106A	HeLa	0.12 µM
c1ccc(CNCc2ccc(CN3CCCNCCNCCCNCC3)cc2)nc1	EC50	NL4-3	cytopathic effect / MTS		MT-4	0.0061 µM
Cc1cc(S(N)(=O)=O)ccc1NC(=O)COc1ccc(Cl)cc1C(=O)c1cc(C#N)cc(C(=O)N2CCCC2)c1	EC50			V106A	HeLa	>2 µM
c1cc(CN2CCCNCCNCCCNCC2)ccc1CN1CCCNCCNCCCNCC1	EC50	WOPRO1838 Recombinant				0.02 µM
CON(C)C(=O)c1cc(C#N)cc(C(=O)c2cc(Cl)ccc2OCC(=O)Nc2ccc(S(N)(=O)=O)cc2C)c1	EC50			Y181C	HeLa	0.117 µM
CC[C@H](C)[C@H]1NC(=O)[C@@H](NC(=O)[C@H](CC(C)C)N(C)C(=O)[C@@H]2CCCN2C(=O)C(C)=O)[C@@H](C)OC(=O)[C@H](Cc2ccc(OC)cc2)N(C)C(=O)[C@@H]2CCCN2C(=O)[C@H](CC(C)C)NC(=O)[C@@H](C)C(=O)[C@H](C(C)C)OC(=O)C[C@@H]1O	EC50	NL4-3	luciferase		PBMC	0.03 µM
O=[P@]12O[C@@H]([C@@H](O)[C@@H](Cc3ccccc3)N1Cc1ccc3ccccc3c1)[C@@H](Cc1ccccc1)N2Cc1ccc2ccccc2c1	EC90	RF			MT-2	>80 µM
Cc1cc(S(N)(=O)=O)ccc1NC(=O)COc1ccc(Cl)cc1C(=O)c1cc(N)cc(C#N)c1	EC50			V106A	HeLa	0.027 µM

4 of the rows above, restated:

{"smiles": "Cc1cc(S(N)(=O)=O)ccc1NC(=O)COc1ccc(Cl)cc1C(=O)c1cc(C#N)cc(OC(F)F)c1", "endpoint": "EC50", "mutations": "K103N", "cell line": "HeLa", "result": "0.0012 µM"}
{"smiles": "CCc1cc(NCc2nc3c(Cl)ccc(Cl)c3o2)c(=O)[nH]c1C", "endpoint": "EC50", "strain": "Pyr(RT-Y181C)", "read by": "syncytia", "mutations": "RT-Y181C", "cell line": "CEM", "result": "11 µM"}
{"smiles": "Cc1ccnc2c1NC(=O)c1cccnc1N2C1CC1", "endpoint": "EC50", "strain": "WOPRO1838 Recombinant", "result": "0.05 µM"}
{"smiles": "Cc1cc(S(N)(=O)=O)ccc1NC(=O)COc1ccc(Cl)cc1C(=O)c1cc(C#N)cc([N+](=O)[O-])c1", "endpoint": "EC50", "mutations": "K103N", "cell line": "HeLa", "result": "0.0014 µM"}